From PubChem BioAssay AID651820 (National Center for Advancing Translational Sciences (NCATS), 2012)
Only a part is listed here, and it is no random draw. Records with an inconclusive call do not appear. The source made the active and inactive calls. Calls come from the whole dose curve; as a rule, active = well fitted inhibition curve with a large enough effect; inconclusive = small, poorly fitted or top-dose-only effect, or another doubt; inactive = no such curve, though single readings can be large or run the other way.

assay: qHTS Assay for Inhibitors of Hepatitis C Virus (HCV); conditions: Huh7.5.1 HCVcc-Cre (HCVcc is cell-culture hepatitis C virus) infection, luciferase reporter, 44 h; at 41.8 µM (top of the series)
Excerpt: Hepatitis C virus (HCV) infects about 200 million people in the world. Many infected people progress to chronic liver disease including cirrhosis with a risk of developing liver cancer. To date, there is no effective vaccine for hepatitis C. Current therapy based on interferon is only effective in about half of the patients and is associated with significant adverse effects. The fraction of people with HCV who can complete a successful treatment is estimated to be no more than 10 percent. Recent development of direct-acting antivirals against HCV, such as protease and polymerase inhibitors, is promising but still requires combination with peginterferon and ribavirin for maximal efficacy. In addition, these agents are associated with high rate of resistance and many have significant side effects. Due to the lack of a culture system for infectious HCV, the search for new HCV drugs has been greatly hampered. […]
The assay will start with plating 1,000 cells/well in 3 µL volume and culture for 4 h. […] A volume of 4.5 µL luciferase substrates will be added to each well and the plates will be incubated at room temperature for 15 min. and then read for 15 sec. for the luciferase activity
% is set by controls: 0 for no effect and ±100 for the full control effect.

SMILES	activity change, negative = inhibition
COc1ccccc1CNC(=O)COC(=O)C(O)(c1ccccc1)c1ccccc1	inactive: 21.8%
